PubChem BioAssay AID624099, ICCB-Longwood, 2012
Purpose: 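Knock-downs relieving repression by E2 of an HPV18 LCR luciferase reporter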 (primary screen). Cell system: human C33A cervical carcinoma cells (HPV-negative) stably expressing BPV1 E2 and an HPV18 LCR luciferase reporter. Reagents: siRNA pool against human genes, 40 nM. Time to read-out: 72 h. Detection: 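Per-well luciferase luminescence, z-scored on each plate against the plate mean and SD with control wells left out, then averaged across three replicate plates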. Reading the numbers: mean z-score and z-score: higher = stronger reporter signal, weaker E2 silencing. Rule for the call: 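Mean z ≥ 2 together with z ≥ 2 in two or more of the three replicates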.
Shown is a random part of about 21,000 reagents tested. 497 of all reagents (2.4%) count as active. 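Higher z means weaker E2 silencing; only reporter increases were scored, and knock-downs that hurt cell survival may mask genuine repressor factors.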 A number with no mark means an inactive call. The numbers tell different reagents against one gene apart. Reagent sequences are not shown.

With knock-down of OR4M1, the screen gave mean z-score 0.6; z-score, replicate A = 0.16; z-score, replicate B = 0.37; z-score, replicate C = 1.27.
After knock-down of LINC02902 the results were mean z-score 0.59; z-score, replicate A = 0.67; z-score, replicate B = 0.67; z-score, replicate C = 0.42.
Knock-down of TTC34 #1 resulted in: mean z-score -0.44; z-score, replicate A = -0.75; z-score, replicate B = -0.1; z-score, replicate C = -0.46.
With knock-down of TTC34 #2 the results were mean z-score 1.21; z-score, replicate A = 1.29; z-score, replicate B = 1.3; z-score, replicate C = 1.03.
Depletion of IL36G came out at: mean z-score -0.16; z-score, replicate A = 0.1; z-score, replicate B = -0.29; z-score, replicate C = -0.28.
Against DRC2 the deposit lists mean z-score -0.85; z-score, replicate A = -0.45; z-score, replicate B = -1.08; z-score, replicate C = -1.02.
Against GAL3ST4, the entry reads mean z-score 1.16; z-score, replicate A = 1.22; z-score, replicate B = 1.58; z-score, replicate C = 0.68.
With knock-down of COL13A1, the record shows mean z-score -1.89; z-score, replicate A = -1.91; z-score, replicate B = -2.38; z-score, replicate C = -1.4.
Knock-down of SCRN2 gave: mean z-score -1.86; z-score, replicate A = -1.63; z-score, replicate B = -1.86; z-score, replicate C = -2.1.
After knock-down of PALS1 the results were mean z-score -0.97; z-score, replicate A = -1.03; z-score, replicate B = -1.14; z-score, replicate C = -0.74.
ALDH1L2 scored mean z-score -0.26; z-score, replicate A = -0.31; z-score, replicate B = 0.15; z-score, replicate C = -0.63.
For USP17L9P, the values are mean z-score -0.03; z-score, replicate A = -0.24; z-score, replicate B = 0.2; z-score, replicate C = -0.06.
Knock-down of CNNM3 came out at: mean z-score 2.26 (active); z-score, replicate A = 2.11; z-score, replicate B = 2.52; z-score, replicate C = 2.16.
ATP13A1 scored mean z-score 0.44; z-score, replicate A = 0.5; z-score, replicate B = 0.44; z-score, replicate C = 0.38.
MRPS18A gave mean z-score -1.34; z-score, replicate A = -1.19; z-score, replicate B = -1.12; z-score, replicate C = -1.72.
Knock-down of PTAFR gave: mean z-score 0; z-score, replicate A = 0.17; z-score, replicate B = 0.34; z-score, replicate C = -0.5.
Silencing of H2AC21 gave: mean z-score 0.18; z-score, replicate A = -0.04; z-score, replicate B = 0.08; z-score, replicate C = 0.5.
Silencing of ZNF81 gave: mean z-score 0.08; z-score, replicate A = -0.05; z-score, replicate B = 0.15; z-score, replicate C = 0.14.
With knock-down of LOC400452 (retired record), the record shows mean z-score 0.77; z-score, replicate A = 0.58; z-score, replicate B = 0.76; z-score, replicate C = 0.97.
With knock-down of SAMD9 the results were mean z-score -1.1; z-score, replicate A = -1.34; z-score, replicate B = -1.18; z-score, replicate C = -0.79.
Silencing of SMYD1 gave: mean z-score 1.31; z-score, replicate A = 1.25; z-score, replicate B = 1.34; z-score, replicate C = 1.36.
For VPS45, the values are mean z-score -5.03; z-score, replicate A = -5.27; z-score, replicate B = -4.75; z-score, replicate C = -5.06.
After knock-down of LDLRAD4, the screen gave mean z-score 0.39; z-score, replicate A = 0.69; z-score, replicate B = 0.26; z-score, replicate C = 0.24.
After knock-down of OR51D1, the screen gave mean z-score 0.01; z-score, replicate A = 0.19; z-score, replicate B = -0.17; z-score, replicate C = 0.01.
Against TAF11L1, the values are mean z-score -0.56; z-score, replicate A = -0.74; z-score, replicate B = -0.39; z-score, replicate C = -0.55.
With knock-down of SPHAR (retired record), the record shows mean z-score 0.09; z-score, replicate A = 0.05; z-score, replicate B = 0.12; z-score, replicate C = 0.11.
COX7B2 showed mean z-score -0.06; z-score, replicate A = -0.52; z-score, replicate B = -0.06; z-score, replicate C = 0.4.

2 entries from above, arranged by “mean z-score”, high to low.
GAL3ST4 | mean z-score = 1.16; z-score, replicate A = 1.22; z-score, replicate B = 1.58; z-score, replicate C = 0.68
DRC2 | mean z-score = -0.85; z-score, replicate A = -0.45; z-score, replicate B = -1.08; z-score, replicate C = -1.02
